For 30 molecules, SI results are on record in patent publication US10195189B2, “2-phenethenyltetrahydro isoquinolines useful as anti-HIV compounds” (priority 2014, dated 2019).

The data set deals with HIV-1 NL4-3 viral clone expressing Renilla luciferase. The format is cell-based. The note with it: ratio of CC50 over EC50. The protocol: Protocol for MT-2 Spread Assay
The present assay was used to screen candidate antiviral compounds by quantification of virus spread and production over several rounds of infection in vitro. MT-2, a HIV-1 permissive human T-cell line, was seeded in microtiter plates and was simultaneously treated with serially diluted compound and inoculated with a HIV-1 NL4-3 viral clone engineered to express Renilla luciferase in place of Net Following treatment, the culture was incubated for 96 hours. After the incubation, media was collected and used to estimate relative infectivity on the indicator cell line, TZM-bl. Additionally, viral spread was quantified by measuring luciferase activity via a commercially available luciferase substrate. In parallel, MT-2 cells were seeded and inoculated with mock virus in the presence of serially diluted compound. Compound toxicity was quantified 96 hours after treatment with AlamarBlue.
MT-2 (NIH Aids reagent program 237) cells were grown and maintained in an incubator at 37° C. with 5% CO2 using a basal medium of RPMI-1640 supplemented with 10% FBS. Cells were seeded in 100 μl at 2×10^4 cells/well in white walled 96-well microtiter plates. Candidate compounds were 3-fold serially diluted in the appropriate solvent. Solvent without compound was used as a no drug reference. Cells were inoculated at a multiplicity of 0.027 with an HIV-1 NL4-3 virus stock engineered to express Renilla luciferase in place of Net Diluted virus stock was first added to serially diluted compound. Compound and virus were delivered to cells in an equal volume (100 μl) and treated cultures were returned to the incubator for 96 hours. In parallel, plates for cytotoxicity estimates were prepared in the same way except cells were plated in clear walled 96-well microtiter plates and were mock infected.
At 96 hours post infection, 100 μl virus containing culture supernatant was collected from the treated and infected cultures and serially diluted in DMEM supplemented with 10% FBS, 1% sodium pyruvate, and 20 μg/ml DEAE dextran. One day prior, TZM-bl (ATCC PTA-5659) were cultured in basal medium of DMEM supplemented with 10% FBS and 1% sodium pyruvate and seeded at 7.5×10^3 cells/well in black walled 96-well microtiter plates. Diluted virus containing culture supernatant was transferred to TZM-bl cultures and incubated for 48 hours at 37° C. with 5% CO2. Infected TZM-bl cultures were fixed for 5 minutes with a 1% formaldehyde/0.2% gluteraldehyde/PBS solution then washed three times with PBS. Fixed cultures were incubated at 37° C. for 25 minutes with a 200 μg/ml MUG (4-Methylumbelliferyl β-D-[…])/DMEM solution. The reaction was stopped with an equal volume of 1M sodium carbonate and read at 360, 449 nm on fluorescence plate reader (Biotek).
At 96 hours post infection, 100 μl of culture supernatant was removed from the treated and infected cultures and EnduRen live cell substrate (Promega) was added at a final concentration 1.3 μg/ml. Cells were incubated for 1.5 hours at 37° C. with 5% CO2 then read on a luminescence plate reader (Biotek).
For all assays, data was imported into Accelrys Assay Explorer 3.3. In Assay Explorer, % inhibition (antiviral or cytotoxicity) was calculated using the solvent control as a reference by the following equation: 1−(SignalCompound/SignalReference). The % Inhibition and compound concentration data was fitted using the following 4-parameter logistic model (Assay Explorer model 42):
[formula] where X is compound concentration, Y is % inhibition, D is the maximum % Inhibition (constrained to 100%), C is IC50 value or inflection point, B is the hill slope, and A is the minimum % inhibition (constrained to 0%). The IC50 value is reported as the EC50 or CC50 depending on the assay endpoint. EC50 represents the effective concentration at which virus replication is inhibited by 50 percent. CC50 represents the concentration that results in the death of 50 percent of the host cells. […]
For `COc1cc2c(cc1OCc1ccccc1)CCNC2/C=C/c1cc2c(cc1C)OCC2` (stereo not drawn) [CG, 6-Benzyloxy-7-methoxy-1-[(E)-2-(6-methyl-2,3-dihydrobenzofuran-5-yl)vinyl]-1,2,3,4-tetrahydroisoquinoline], the SI amounted to 34.3.
With `COc1cc2c(cc1OCc1ccccc1)CCNC2/C=C/c1cc2ccccc2n1C(=O)OC(C)(C)C` (stereo not drawn) [CH, tert-Butyl 2-[(E)-2-(6-benzyloxy-7-methoxy-1,2,3,4-tetrahydroisoquinolin-1-yl)vinyl]indole-1-carboxylate], the SI is reported as 6.
The value for `COc1cc2c(cc1OCc1ccccc1)CCNC2/C=C/c1cn(C(=O)OC(C)(C)C)c2ccccc12` (stereo not drawn) [CI, tert-Butyl 3-[(E)-2-(6-benzyloxy-7-methoxy-1,2,3,4-tetrahydroisoquinolin-1-yl)vinyl]indole-1-carboxylate] was 21.7.
The value for `COc1cc2c(cc1OCc1ccccc1)CCNC2/C=C/c1c[nH]c2ccccc12` (stereo not drawn) [CJ, 6-Benzyloxy-1-[(E)-2-(1H-indol-3-yl)vinyl]-7-methoxy-1,2,3,4-tetrahydroisoquinoline] was 13.9; that for `CCOC(=O)CCCOc1cc(/C=C/C2NCCc3cc(OCc4ccccc4)c(OC)cc32)ccc1OC` (stereo not drawn) [CV, Ethyl 4-[5-[(E)-2-(6-benzyloxy-7-methoxy-1,2,3,4-tetrahydroisoquinolin-1-yl)vinyl]-2-methoxy-phenoxy]butanoate] was 20.
In the case of `COc1cc2c(cc1OCc1ccccc1)CCNC2/C=C/c1ccccc1NC(=O)OC(C)(C)C` (stereo not drawn) [CW, tert-Butyl N-[2-[(E)-2-(6-benzyloxy-7-methoxy-1,2,3,4-tetrahydroisoquinolin-1-yl)vinyl]phenyl]carbamate] it was 4.3.
As to `COc1cc2c(cc1OCc1ccccc1)CCNC2/C=C/c1ccccc1N` (stereo not drawn) [CX, 2-[(E)-2-(6-benzyloxy-7-methoxy-1,2,3,4-tetrahydroisoquinolin-1-yl)vinyl]aniline], the SI stood at 14.
The value for `COc1cc2c(cc1OCc1ccccc1)CCNC2/C=C/c1ccc(OC)c(C(F)(F)F)c1` (stereo not drawn) [CY, (E)-6-(Benzyloxy)-7-methoxy-1-(4-methoxy-3-(trifluoromethyl)styryl)-1,2,3,4-tetrahydroisoquinoline] was 5.7; that for `COc1cc2c(cc1OCc1ccccc1)CCNC2/C=C/c1cc(C)c(OC)c(C(F)(F)F)c1` (stereo not drawn) [CZ, (E)-6-(benzyloxy)-7-methoxy-1-(4-methoxy-3-methyl-5-(trifluoromethyl)styryl)-1,2,3,4-tetrahydroisoquinoline] was 1.8.
The value for `COc1cc2c(cc1OCc1ccccc1)CCNC2/C=C/c1ccccc1C(F)(F)F` (stereo not drawn) [DA, (E)-6-(benzyloxy)-7-methoxy-1-(2-(trifluoromethyl)styryl)-1,2,3,4-tetrahydroisoquinoline] was 4.3.
In the case of `COc1cc2c(cc1OCc1ccccc1)CCNC2/C=C/c1cccc(C(F)(F)F)c1` (stereo not drawn) [DB, (E)-6-(benzyloxy)-7-methoxy-1-(3-(trifluoromethyl)styryl)-1,2,3,4-tetrahydroisoquinolin] it was 3.7; in that of `COc1cc2c(cc1OCc1ccccc1)CCNC2/C=C/c1ccccc1N(C)C` (stereo not drawn) [DC, (E)-2-(2-(6-(benzyloxy)-methoxy-1,2,3,4-tetrahydroisoquinolin-1-yl)vinyl)-N,N-dimethylamine], 12.1; in that of `COCCOc1ccccc1/C=C/C1NCCc2cc(OCc3ccccc3)c(OC)cc21` (stereo not drawn) [DE, (E)-6-(benzyloxy)-7-methoxy-1-(2-(2-methoxyethoxy)styryl)-1,2,3,4-tetrahydroisoquinoline], 6.9.
Regarding `COc1cc2c(cc1OCc1ccccc1)CCNC2/C=C/c1ccc2c(c1)OC(F)(F)O2` (stereo not drawn) [DF, (E)-6-(benzyloxy)-1-(2-(2,2-difluorobenzo[d][1,3]dioxol-5-yl)vinyl)-7-methoxy-1,2,3,4-tetrahydroisoquinoline], the SI turned out to be 1.8.
The value for `COc1ccccc1/C=C/C1NCCc2cc(OCc3ccccc3)c(OC)cc21` (stereo not drawn) [DG, (E)-6-(benzyloxy)-7-methoxy-1-(2-methoxystyryl)-1,2,3,4-tetrahydroisoquinoline] was 4.1.
In the case of `COc1cc2c(cc1OCc1ccccc1)CCNC2/C=C/c1ccccc1N1CCOCC1` (stereo not drawn) [DH, (E)-4-(2-(2-(6-(benzyloxy)-7-methoxy-1,2,3,4-tetrahydroisoquinolin-1-yl)vinyl)phenyl)morpholine] it was 3.4; in that of `COc1ccc2cc(/C=C/C3NCCc4cc(OCc5ccccc5)c(OC)cc43)ccc2c1` (stereo not drawn) [DI, (E)-6-(benzyloxy)-7-methoxy-1-(2-(6-methoxynaphthalen-2-yl)vinyl)-1,2,3,4-tetrahydroisoquinoline], 9.2.
The value for `COc1cc2c(cc1OCc1ccccc1)CCNC2/C=C/c1ccc(-c2cccnc2)cc1` (stereo not drawn) [DJ] was 15.
Take `COc1cc2c(cc1OCc1ccccc1)CCNC2/C=C/c1ccc(-n2ccnc2)cc1` (stereo not drawn) [DK, (E)-1-(4-(1H-imidazol-1-yl)styryl)-6-(benzyloxy)-7-methoxy-1,2,3,4-tetrahydroisoquinoline]: the SI is 85.
In the case of `COc1cc2c(cc1OCc1ccccc1)CCNC2/C=C/c1ccc2cccnc2c1` (stereo not drawn) [DL, (E)-7-(2-(6-(benzyloxy)-7-methoxy-1,2,3,4-tetrahydroisoquinolin-1-yl)vinyl)quinoline] it was 72; in that of `COc1cc2c(cc1OCc1ccccc1)CCNC2/C=C/c1ccc(-n2ccnc2C)cc1` (stereo not drawn) [DM, (E)-6-(benzyloxy)-7-methoxy-1-(4-(2-methyl-1H-imidazol-1-yl)styryl)-1,2,3,4-tetrahydroisoquinoline], 14.
In the case of `COc1cccc(-c2ncc(/C=C/C3NCCc4cc(OCc5ccccc5)c(OC)cc43)cn2)c1` (stereo not drawn) [DN] it was 7.1; in that of `CCN1CCN(c2ccc(/C=C/C3NCCc4cc(OCc5ccccc5)c(OC)cc43)cc2)CC1` (stereo not drawn) [DO, (E)-6-(benzyloxy)-1-(4-(4-ethylpyrazin-1-yl)styryl)-7-methoxy-1,2,3,4-tetrahydroisoquinoline], 7.3.
The value for `COc1cc2c(cc1OCc1ccccc1)CCNC2/C=C/c1cn(C)c2ncccc12` (stereo not drawn) [DP] was 92; that for `COc1cc2c(cc1OCc1ccccc1)CCNC2/C=C/c1cccc(-c2ccncc2)c1` (stereo not drawn) [DQ, 6-(Benzyloxy)-7-methoxy-1-[(E)-2-[3-(pyridin-4-yl)phenyl]ethenyl]-1,2,3,4-tetrahydroisoquinoline] was 35.
Regarding `COc1cc2c(cc1OCc1ccccc1)CCNC2/C=C/c1cscn1` (stereo not drawn) [DR, 6-(Benzyloxy)-7-methoxy-1-[(E)-2-(1,3-thiazol-4-yl)ethenyl]-1,2,3,4-tetrahydroisoquinolin], the SI was 5.3.
The value for `COc1cc2c(cc1OCc1ccccc1)CCNC2/C=C/c1ccc(-c2cncnc2)cc1` (stereo not drawn) [DS, 6-(Benzyloxy)-7-methoxy-1-[(E)-2-[4-(pyrimidin-5-yl)phenyl]ethenyl]-1,2,3,4-tetrahydroisoquinoline] was 64; that for `COc1cc2c(cc1OCc1ccccc1)CCNC2/C=C/c1ccc(-n2cncn2)cc1` (stereo not drawn) [DT, 6-(Benzyloxy)-7-methoxy-1-[(E)-2-[4-(1H-1,2,4-triazol-1-yl)phenyl]ethenyl]-1,2,3,4-tetrahydroisoquinoline] was 47; that for `COc1cc2c(cc1OCc1ccccc1)CCNC2/C=C/c1cc2ccccc2s1` (stereo not drawn) [DU, 1-[(E)-2-(1-Benzothiophen-2-yl)ethenyl]-6-(benzyloxy)-7-methoxy-1,2,3,4-tetrahydroisoquinoline] was 1.6.
For `COc1cc2c(cc1OCc1ccccc1)CCNC2/C=C/c1nccs1` (stereo not drawn) [DV, 6-(Benzyloxy)-7-methoxy-1-[(E)-2-(1,3-thiazol-2-yl)ethenyl]-1,2,3,4-tetrahydroisoquinoline], the SI was 0.74.
